Anti-infective test results gathered from many reports (values: NIAID ChemDB through PubChem).

All rows: tests in culture; species: HIV-2; method: cytopathic effect / trypan blue; measure: EC50

Conditions beyond the fields shown may differ between rows.

compound	cells	strain or isolate	value
COC(=O)CCCCCCNP(=O)(OC[C@@H]1C=C[C@H](n2cc(C)c(=O)[nH]c2=O)O1)Oc1ccccc1	CEM + CEM/0	ROD	110 µM
Nc1ccn([C@H]2CC[C@@H](CO)O2)c(=O)n1	MT-4	LAV-2	0.33 µM
CC(C)(C)[Si](C)(C)OC[C@H]1O[C@@H](n2cnc3c(=O)n(CC(=O)O)cnc32)[C@H](O)[C@@H]1O[Si](C)(C)C(C)(C)C	MT-4	ROD	22 µM
COC(=O)[C@@H]1O[C@]12[C@@H](CO[Si](C)(C)C(C)(C)C)O[C@@H](n1ccc(=O)[nH]c1=O)[C@@H]2O[Si](C)(C)C(C)(C)C	MT-4	ROD	>10 µM
O=c1[nH]c(=O)n([C@H]2C=C[C@@H](CO)O2)cc1Cl	MT-4	LAV-2	>20 µM
CC(C)(C)[Si](C)(C)OC[C@H]1O[C@@H](n2ccc(=O)[nH]c2=O)[C@H](O[Si](C)(C)C(C)(C)C)C1(O)C(Cl)C(N)=O	MT-4	ROD	>2 µM
Nc1ccn([C@H]2C=C[C@@H](CO)O2)c(=O)n1	MT-4	ROD	0.69 µM
COC(=O)CCCCNP(=O)(OC[C@@H]1C=C[C@H](n2cc(C)c(=O)[nH]c2=O)O1)Oc1ccccc1	CEM + CEM/0	ROD	>250 µM
COC(=O)Cn1c(=O)c(C)cn([C@@H]2O[C@H](CO[Si](C)(C)C(C)(C)C)[C@@H](O)[C@H]2O[Si](C)(C)C(C)(C)C)c1=O	MT-4	ROD	>10 µM
CC(C)(C)[Si](C)(C)OC[C@H]1O[C@@H](n2ccc(=O)[nH]c2=O)[C@H](O[Si](C)(C)C(C)(C)C)C1(O)[C@H](N=[N+]=[N-])C(N)=O	MT-4	ROD	>10 µM
Cc1cn([C@@H]2O[C@H](CO[Si](C)(C)C(C)(C)C)[C@@H](O)[C@H]2O[Si](C)(C)C(C)(C)C)c(=O)n(CCCCC(=O)O)c1=O	MT-4	ROD	≥10 µM
COC(=O)CCCCCNP(=O)(OC[C@@H]1C=C[C@H](n2cc(C)c(=O)[nH]c2=O)O1)Oc1ccccc1	CEM + CEM/0	ROD	≥250 µM
CC(C)(C)[Si](C)(C)OC[C@@H]1CC[C@H](n2cnc3c(=O)n(CC(=O)O)cnc32)O1	MT-4	ROD	>200 µM
CC(C)(C)[Si](C)(C)OC[C@H]1O[C@@H](n2ccc(=O)[nH]c2=O)[C@H](O[Si](C)(C)C(C)(C)C)[C@@]12O[C@H]2C(=O)NN	MT-4	ROD	>2 µM
COC(=O)CCCCn1c(=O)c(C)cn([C@@H]2O[C@H](CO[Si](C)(C)C(C)(C)C)[C@@H](O)[C@H]2O[Si](C)(C)C(C)(C)C)c1=O	MT-4	ROD	>10 µM
COC(=O)CCCNP(=O)(OC[C@@H]1C=C[C@H](n2cc(C)c(=O)[nH]c2=O)O1)Oc1ccccc1	CEM + CEM/0	ROD	≥250 µM
CCOC(=O)CC1(O)[C@@H](CO[Si](C)(C)C(C)(C)C)O[C@@H](n2ccc(=O)[nH]c2=O)[C@@H]1O[Si](C)(C)C(C)(C)C	MT-4	ROD	>10 µM
Cc1cn([C@@H]2O[C@H](CO[Si](C)(C)C(C)(C)C)[C@@H](O)[C@H]2O[Si](C)(C)C(C)(C)C)c(=O)n(CCC(=O)O)c1=O	MT-4	ROD	>10 µM

Repeating the first 2 entries:

{"compound": "COC(=O)CCCCCCNP(=O)(OC[C@@H]1C=C[C@H](n2cc(C)c(=O)[nH]c2=O)O1)Oc1ccccc1", "cells": "CEM + CEM/0", "strain or isolate": "ROD", "value": "110 µM"}
{"compound": "Nc1ccn([C@H]2CC[C@@H](CO)O2)c(=O)n1", "cells": "MT-4", "strain or isolate": "LAV-2", "value": "0.33 µM"}

ECn is the concentration giving n% inhibition of infection, replication or growth.